In publication PMC5595328:
The exact form of at least one protein or probe is not confirmed. For part of these data: At least one verdict was read from the data and is not stated in words by the source.

By UniProt entry, the sequences of proteins in these tests, tags left out. Where a name states a change or a piece, a line headed by the entry shows the natural chain unless it says otherwise.
UniProt P39897: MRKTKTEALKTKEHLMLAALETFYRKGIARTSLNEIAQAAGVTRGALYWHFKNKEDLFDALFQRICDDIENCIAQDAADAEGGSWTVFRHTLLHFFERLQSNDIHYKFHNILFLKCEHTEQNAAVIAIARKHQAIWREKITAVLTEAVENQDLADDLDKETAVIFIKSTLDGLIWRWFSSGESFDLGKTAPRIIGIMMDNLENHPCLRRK

Tests used:
[1] = system: VarR (Vibrio cholerae O1 biovar El Tor N16961); assay: competition with a labelled probe; settings: 50 mM Tris-HCl pH 7.5, 5 mM EDTA, 1 mM DTT, 100 ug/ml BSA, 5% glycerol, on ice 10 min, 4% polyacrylamide gel, recombinant protein, protein details: His6 (pQE-100, N-terminal), label: 32P
[2] = system: VarR (Vibrio cholerae O1 biovar El Tor N16961); assay: EMSA; settings: 50 mM Tris-HCl pH 7.5, 5 mM EDTA, 1 mM DTT, 100 ug/ml BSA, 5% glycerol, on ice 10 min, 4% polyacrylamide gel, recombinant protein, protein details: His6 (pQE-100, N-terminal)
MtrR = MtrR (UniProt P39897); assay: EMSA; settings: 200 ng MtrR, positive control; 50 mM Tris-HCl pH 7.5, 5 mM EDTA, 1 mM DTT, 100 ug/ml BSA, 5% glycerol, on ice 10 min; 4% polyacrylamide gel; recombinant …; label: 32P

“ATAACAGCATGCTGGGAGGCCAGCA (double strand) [25 bp varB-varC IR]”: binds ([1]; unlabelled N24 displaces labelled N24); binds ([2]; 0-400 ng VarR, label: 32P).

“GATATGATTGATCACTAATTAGACGACCTT / AAGGTCGTCTAATTAGTGATGAATCATATC [varGA1 (30 bp)]”: binds ([1]; unlabelled varGA1 displaces labelled varGA1); binds ([2]; 50 ng VarR, label: 32P).

“TATACATACTATAACAAGCATGCATTTTTGAT (double strand) [2nd 32 bp varR-varG IR]”: binds ([2]; 50 and 200 ng VarR, label: 32P on strand 1).

“TTTTTATCCGTGCAATCGTGTATGTATAATG (double strand) [VarPC / Mtr1 (31 bp)]”: binds (MtrR).
